# Values of other authors, collected in patent US4500516A, “Antibacterial pharmaceutical composition” (priority 1982, dated 1985).
# System: pathogenic microorganisms
# Details: cited from earlier work
smiles,measurement,setting,value
O=C1CN(N=CC=Cc2ccc([N+](=O)[O-])o2)C(=O)N1,development of drug resistance,microorganisms,practically no drug resistance
same,activity against resistant strains,pathogenic strains of staphylococci and microorganisms resistant to other chemotherapeutic agents and antibiotics,retains its activity
